Target: HIV-Nef (Human immunodeficiency virus type 1, UniProt P03406)
Assay type: cell-based, HIV-1
Conditions: 24 h

CNC(=O)O[C@@H](CC(C)C)c1nc([C@H]2OC(=O)/C(C)=C/C/C(C)=C/[C@@H](O)[C@@H](C)\C=C(C)/C=C(C)\C=C\[C@@H](O)[C@H](C)[C@H](OC)/C(C)=C/C=C/[C@@H]2C)cs1 [compound 3, archazolid A, reference compound]
Nef inhibitory potency, in words (relative to parent or comparator): sub nM potency
